Measured values from several laboratories, pooled; numbers as filed in NIAID ChemDB.

Common to all: whole-cell or culture tests; organism: Herpes simplex virus 1

Conditions beyond the fields shown may differ between rows.

{"smiles": "Cc1ccc(C2NC(=O)C3NC(=O)C(c4cc(O)cc(O)c4)NC(=O)C(NC(=O)C(N)Cc4ccc(O)cc4)Cc4c[nH]c5cc(ccc45)-c4cc3cc(c4O)Oc3ccc(cc3)CC(C(=O)NC(C(=O)O)c3ccc(O)c(O)c3)NC2=O)cc1Cl", "cell line": "VERO", "measure": "EC50", "strain": "KOS", "value": "44 µg/mL"}
{"smiles": "CC(=O)Nc1ccc(NC(=S)NC(C)c2ccc(F)cc2)cc1", "cell line": "VERO", "read by": "ELISA", "measure": "EC50", "value": ">10 µg/mL"}
{"smiles": "CCCCOC[C@H]1O[C@@H]2CC(C)(C)C[C@@H]2[C@H]1OCCCC", "cell line": "E6SM", "read by": "cytopathic effect", "measure": "EC50", "strain": "KOS", "value": ">80 µg/mL"}
{"smiles": "CC[C@@H](C(C)C)[C@@H](O)[C@H](O)[C@@H](C)[C@H]1CC[C@H]2[C@@H]3CC(=O)[C@H]4C[C@@H](Br)CC[C@]4(C)[C@H]3CC[C@]12C", "cell line": "VERO", "read by": "plaque count", "measure": "EC50", "strain": "F", "value": "53.3 µM"}
{"smiles": "C=CCN(c1ccc(NC(=S)Nc2ccc(NC(C)=O)cc2)cc1Cl)C1CCCCC1", "cell line": "VERO", "read by": "ELISA", "measure": "EC50", "value": ">50 µg/mL"}
{"smiles": "Nc1nc2c(ncn2CCC(CO)CO)c(=O)[nH]1", "cell line": "MRC-5", "measure": "EC50", "strain": "SC16", "value": "0.01 µg/mL"}
{"smiles": "CCCCCCCCCCCCCCCCCCOCCOP(=O)(O)CO[C@H](CO)Cn1ccc(N)nc1=O", "cell line": "MRC-5", "measure": "EC50", "value": "0.001 µM"}
{"smiles": "O=c1[nH]c(=O)n([C@@H]2O[C@H](CO)[C@@H](O)[C@@H]2O)cc1/C=C/I", "cell line": "HELF", "read by": "plaque count", "measure": "EC50", "strain": "CHR-3", "value": "0.016 µg/mL"}
{"smiles": "O=C(O)c1ccccc1-c1nc2ccccc2n1C(=O)c1ccncc1", "measure": "EC50", "strain": "KOS", "value": ">100 µg/mL"}
{"smiles": "COc1cc(OC)c(NC(=S)Nc2ccc(NC(C)=O)cc2)cc1Cl", "cell line": "VERO", "read by": "ELISA", "measure": "EC50", "value": "50 µg/mL"}
{"smiles": "N#Cc1csnc1-c1ccccc1", "cell line": "VERO", "read by": "plaque count", "measure": "EC50", "strain": "F strain", "value": ">100 µM"}
{"smiles": "Nc1ncnc2c1ncn2C[C@H]1C[C@H]1[C@H](O)CO", "cell line": "VERO", "measure": "EC50", "value": ">50 µM"}
{"smiles": "O=c1[nH]c(=O)n(C2CC(O[N+](=O)[O-])C(CO)O2)cc1F", "cell line": "E6SM", "read by": "cytopathic effect", "measure": "EC50", "strain": "KOS ACV-R (TK-)", "value": ">400 µg/mL"}
{"smiles": "C=C1[C@H](CO)[C@H]1Cn1cnc2c(N)ncnc21", "measure": "EC50", "value": ">100 µM"}
{"smiles": "CC[C@@H](C(C)C)[C@@H](O)[C@H](O)[C@@H](C)[C@H]1CC[C@H]2[C@@H]3CC(=O)[C@H]4C[C@H](O)[C@H](O)C[C@]4(C)[C@H]3CC[C@]12C", "cell line": "VERO", "read by": "plaque count", "measure": "EC50", "strain": "B2006 (TK-)", "value": "64.9 µM"}
{"smiles": "O=c1[nH]c(=O)n([C@@H]2O[C@H](CO)[C@@H](O)[C@@H]2F)cc1I", "cell line": "VERO", "read by": "cytopathic effect", "measure": "EC50", "value": "<0.01 µg/mL"}
{"smiles": "CC(=O)OC[C@H]1O[C@@H]2Oc3c(c(=O)n(C)c(=O)n3C)S[C@@H]2[C@@H](OC(C)=O)[C@H]1OC(C)=O", "cell line": "VERO", "measure": "EC50", "value": "61 µM"}
{"smiles": "Nc1nc2c(ncn2COCCO)c(=O)[nH]1", "cell line": "HELF", "read by": "plaque count", "measure": "EC50", "strain": "VR-3", "value": "0.041 µg/mL"}
{"smiles": "CCCc1cn([C@H]2C[C@H](O)[C@@H](CO)O2)c(=O)[nH]c1=O", "cell line": "PRK", "read by": "cytopathic effect", "measure": "EC50", "strain": "KOS", "value": "3 µg/mL"}
{"smiles": "Cc1cn(C[C@H]2C[C@H]2[C@H](O)CO)c(=O)[nH]c1=O", "cell line": "VERO", "measure": "EC50", "value": ">50 µM"}
{"smiles": "Cn1c2c(c(=O)n(C)c1=O)S[C@H]1[C@@H](O2)O[C@H](COc2ccccc2)[C@@H](OCc2ccccc2)[C@@H]1OCc1ccccc1", "cell line": "VERO", "measure": "EC90", "value": ">100 µM"}
{"smiles": "O=C(O)CP(=O)(O)O", "cell line": "MEF", "read by": "plaque count", "measure": "EC50", "strain": "E-377", "value": "4.6 µg/mL"}
{"smiles": "CC[C@@H](C(C)C)[C@@H](O)[C@H](O)[C@@H](C)[C@H]1CC[C@H]2[C@@H]3CC(=O)[C@@]4(O)C[C@H](O)[C@H](O)C[C@]4(C)[C@H]3CC[C@]12C", "cell line": "VERO", "read by": "plaque count", "measure": "EC50", "strain": "B2006 (TK-)", "value": ">40.4 µM"}
{"smiles": "Cn1c2c(c(=O)n(C)c1=O)S[C@H]1[C@@H](O2)O[C@H](CO)[C@@H](O)[C@@H]1O", "cell line": "VERO", "measure": "EC50", "value": ">100 µM"}
{"smiles": "Nc1nc2c(ncn2COCCO)c(=O)[nH]1", "cell line": "PRK", "read by": "cytopathic effect", "measure": "EC50", "strain": "McIntyre", "value": "0.05 µg/mL"}
{"smiles": "O=c1c2cccc(Cl)c2[nH]c2cc(O)cc(O)c12", "measure": "EC50", "strain": "KOS", "value": "10 µM"}
{"smiles": "CSc1nsc(-c2cccs2)c1C#N", "cell line": "VERO", "read by": "plaque count", "measure": "EC50", "strain": "F strain", "value": ">6 µM"}
{"smiles": "C=C1[C@H](CO)OC[C@@H]1n1ccc(=O)[nH]c1=O", "measure": "EC50", "value": ">100 µg/mL"}
{"smiles": "C=C1[C@H](CO)[C@H]1Cn1cnc2c(N)nc(N)nc21", "measure": "EC50", "value": ">100 µM"}
{"smiles": "CC[C@@H](C(C)C)[C@H](O)[C@@H](O)[C@@H](C)[C@H]1CC[C@H]2[C@@H]3CC(=O)[C@H]4C[C@H](O)[C@H](O)C[C@]4(C)[C@H]3CC[C@]12C", "cell line": "VERO", "read by": "plaque count", "measure": "EC50", "strain": "F", "value": "22.8 µM"}
{"smiles": "CCCCCC(=O)OCC(CO)CCn1cnc2c(=O)[nH]c(N)nc21", "cell line": "VERO", "read by": "plaque count", "measure": "EC50", "strain": "HFEM", "value": "6 µM"}
{"smiles": "O=C(NCc1ccc(Cl)cc1)c1c[nH]c2c(F)cccc2c1=O", "measure": "EC50", "strain": "PAAS (R841S (III))", "value": "4.6 µM"}
{"smiles": "CC[C@@H](C(C)C)[C@H](O)[C@@H](O)[C@@H](C)[C@H]1CC[C@H]2[C@@H]3CC(=O)[C@H]4C[C@@H](Br)CC[C@]4(C)[C@H]3CC[C@]12C", "cell line": "VERO", "read by": "plaque count", "measure": "EC50", "strain": "F", "value": "30.1 µM"}
{"smiles": "CO[C@@H]1[C@H](O)[C@@H](CO)O[C@H]1c1ccccc1", "cell line": "E6SM", "read by": "cytopathic effect", "measure": "EC50", "strain": "KOS", "value": ">400 µg/mL"}
{"smiles": "CC(=O)O[C@@H]1[C@@H](OC(C)=O)[C@H](C)O[C@@H]2Oc3c(c(=O)n(C)c(=O)n3C)S[C@@H]21", "cell line": "VERO", "measure": "EC50", "value": ">100 µM"}
{"smiles": "N#Cc1c(-c2ccccc2)nsc1Cl", "cell line": "VERO", "read by": "plaque count", "measure": "EC50", "strain": "F strain", "value": ">20 µM"}
{"smiles": "Nc1nc2c(ncn2CCC(CO)CO)c(=O)[nH]1", "cell line": "MRC-5", "read by": "plaque count", "measure": "EC50", "strain": "HFEM", "value": "0.5 µg/mL"}
{"smiles": "CO[C@H]1[C@H](O)[C@H](n2ccc(N)nc2=O)O[C@@H]1CO", "cell line": "PRK", "read by": "cytopathic effect", "measure": "EC50", "value": ">200 µg/mL"}
{"smiles": "Cc1cn([C@@H]2O[C@H](CO)[C@@H](O)[C@@H]2O)c(=O)[nH]c1=O", "cell line": "HELF", "read by": "plaque count", "measure": "EC50", "strain": "CHR-3", "value": "0.19 µg/mL"}
{"smiles": "Nc1ncnc2c1ncn2C[C@@H](CO)OCP(=O)(O)O", "cell line": "WI-38", "read by": "plaque count", "measure": "EC50", "strain": "KOS", "value": "5 µM"}
{"smiles": "C=C1[C@H](CO)[C@H]1Cn1cnc2c(Cl)ncnc21", "measure": "EC50", "value": ">100 µM"}
{"smiles": "O=c1[nH]cnc2c1ncn2C[C@H]1C[C@H]1CO", "cell line": "VERO", "measure": "EC50", "value": ">50 µM"}
{"smiles": "Nc1ncnc2c1c(Br)cn2COCCO", "cell line": "HEF", "read by": "cytopathic effect", "measure": "EC50", "value": "3 µM"}
{"smiles": "COc1ccc(-c2snc(SC)c2C#N)cc1", "cell line": "VERO", "read by": "plaque count", "measure": "EC50", "strain": "F strain", "value": ">10 µM"}
{"smiles": "Nc1nc2c(ncn2COCCO)c(=O)[nH]1", "read by": "plaque count", "measure": "EC50", "value": "0.2–0.5 µg/mL"}
{"smiles": "COc1nc(N)nc2c1ncn2CCC(CO)CO", "cell line": "VERO", "read by": "plaque count", "measure": "EC50", "strain": "HFEM", "value": "250 µM"}
{"smiles": "Cc1cn([C@@H]2O[C@H](CO)[C@@H](O)[C@@H]2F)c(=O)[nH]c1=O", "cell line": "HEP-2", "read by": "cytopathic effect", "measure": "EC50", "value": "<0.3 µg/mL"}
{"smiles": "C=C(C)[C@@H]1CC[C@]2(C(=O)O)CC[C@]3(C)[C@H](CC[C@@H]4[C@@]5(C)CCC(=O)C(C)(C)[C@@H]5CC[C@]43C)[C@@H]12", "cell line": "VERO", "read by": "plaque count", "measure": "EC50", "strain": "7401H", "value": "2.6 µg/mL"}
{"smiles": "O=c1[nH]c(=O)n(C2CC(O)C(CO)O2)cc1CCCCl", "cell line": "PRK", "read by": "cytopathic effect", "measure": "EC50", "strain": "McIntyre", "value": "0.2 µg/mL"}
{"smiles": "CCOC[C@H]1O[C@@H](n2ccc(N)nc2=O)[C@@H](O)[C@@H]1O", "cell line": "PRK", "read by": "cytopathic effect", "measure": "EC50", "value": ">200 µg/mL"}
{"smiles": "CC[C@@H](C(C)C)[C@H](O)[C@@H](O)[C@@H](C)[C@H]1CC[C@H]2[C@@H]3CC(=O)[C@@]4(O)C[C@H](O)[C@H](O)C[C@]4(C)[C@H]3CC[C@]12C", "cell line": "VERO", "read by": "plaque count", "measure": "EC50", "strain": "B2006 (TK-)", "value": "91.5 µM"}
{"smiles": "CSc1nsc(-c2ccccc2Cl)c1C#N", "cell line": "VERO", "read by": "plaque count", "measure": "EC50", "strain": "F strain", "value": ">5 µM"}
{"smiles": "O=C(c1ccc([N+](=O)[O-])cc1)n1c(-c2ccc([N+](=O)[O-])cc2)nc2ccccc21", "measure": "EC50", "strain": "KOS", "value": "100 µg/mL"}
{"smiles": "O=c1[nH]c(=O)n([C@H]2C[C@H](O)[C@@H](CO)O2)cc1/C=C/Br", "cell line": "HELF", "read by": "plaque count", "measure": "EC50", "strain": "CHR-3", "value": "0.014 µg/mL"}
{"smiles": "O=C(c1ccncc1)n1c(-c2cccc(Cl)c2)nc2ccccc21", "measure": "EC50", "strain": "KOS", "value": ">100 µg/mL"}
{"smiles": "CC[Si]1(C(C)C)O[C@H]2[C@@H](O)[C@H](c3ccccc3)O[C@@H]2CO[Si](C(C)C)(C(C)C)O1", "cell line": "E6SM", "read by": "cytopathic effect", "measure": "EC50", "strain": "KOS", "value": ">3.2 µg/mL"}
{"smiles": "O=C(c1ccc([N+](=O)[O-])cc1)n1c(-c2ccc(O)cc2)nc2ccccc21", "measure": "EC50", "strain": "KOS", "value": ">100 µg/mL"}
{"smiles": "CCCCCCCCCCCCCCCCCCOCCCOP1(=O)CO[C@@H](Cn2ccc(N)nc2=O)CO1", "cell line": "MRC-5", "read by": "plaque count", "measure": "EC50", "value": "0.5 µM"}
{"smiles": "O=c1[nH]c(=O)n([C@H]2C[C@H](O)[C@@H](CO)O2)cc1/C=C/Br", "cell line": "PRK", "read by": "cytopathic effect", "measure": "EC50", "strain": "KOS", "value": "<0.007 µg/mL"}
{"smiles": "CSc1nsc(C)c1C#N", "cell line": "VERO", "read by": "plaque count", "measure": "EC50", "strain": "F strain", "value": ">100 µM"}
{"smiles": "O=C(NCc1ccc(Cl)cc1)c1c[nH]c2ccc(CCCO)cc2c1=O", "read by": "plaque count", "measure": "EC50", "value": "6.7 µM"}
{"smiles": "O=c1[nH]c(=O)n([C@H]2C[C@H](O)[C@@H](CO)O2)cc1CCCl", "cell line": "PRK", "read by": "cytopathic effect", "measure": "EC50", "strain": "KOS", "value": "<0.14 µg/mL"}
{"smiles": "O=C(c1ccncc1)n1c(-c2ccc([N+](=O)[O-])cc2)nc2ccccc21", "measure": "EC50", "strain": "KOS", "value": ">100 µg/mL"}
{"smiles": "CSc1nsc(-c2ccc[n+](C)c2)c1C#N", "cell line": "VERO", "read by": "plaque count", "measure": "EC50", "strain": "F strain", "value": ">1250 µM"}
{"smiles": "Cc1cn(C[C@H]2C[C@H]2CO)c(=O)[nH]c1=O", "cell line": "VERO", "measure": "EC50", "value": ">50 µM"}
{"smiles": "CSc1nsc(-c2ccc(OS(=O)(=O)c3ccc(C)cc3)cc2)c1C#N", "cell line": "VERO", "read by": "plaque count", "measure": "EC50", "strain": "F strain", "value": ">25 µM"}
{"smiles": "O=c1ccn(C2CC(O[N+](=O)[O-])C(CO)O2)c(=O)[nH]1", "cell line": "E6SM", "read by": "cytopathic effect", "measure": "EC50", "strain": "KOS", "value": ">400 µg/mL"}
{"smiles": "O=c1[nH]c(=O)n([C@H]2C[C@H](O)[C@@H](CO)O2)cc1/C=C/Br", "cell line": "PRK", "read by": "cytopathic effect", "measure": "EC50", "strain": "F", "value": "0.017 µg/mL"}
{"smiles": "CCc1cn([C@H]2C[C@H](O)[C@@H](COP(=O)(O)O)O2)c(=O)[nH]c1=O", "cell line": "HSF", "read by": "cytopathic effect", "measure": "EC50", "strain": "KOS", "value": "4.1 µg/mL"}
{"smiles": "C=Cc1cn(CC(CO)CO)c(=O)[nH]c1=O", "cell line": "VERO", "read by": "plaque count", "measure": "EC50", "strain": "KOSSB (TK-)", "value": ">50 µg/mL"}

ECn is the concentration giving n% inhibition of infection, replication or growth. Two numbers with a dash give a range or band.